{
  "source": "patent US20070196288A1",
  "about": "“Method of treating periodontitis and of reducing dentinal sensitivity” (Research Foundation of the State University of New York, priority 2006, published 2007)",
  "experiment": "Dentine disc application with SEM/EDX examination",
  "set-up": "species or system human",
  "note": "“Also recorded” adds a separate entry of the source.",
  "data": [
    {"smiles": "O.O.O.O.O.O.O=[N+]([O-])[O-].O=[N+]([O-])[O-].O=[N+]([O-])[O-].[Gd+3]", "note": "[gadolinium nitrate, gadolinium nitrate hexahydrate, (Gd(NO3)3.6H2O)]", "values": [
      {"measurement": "tubule penetration depth compared with potassium oxalate", "setting": "alcohol used as a solvent", "result": "tubule penetration depths greater than potassium oxalate"},
      {"measurement": "deposition on dentine surface and within / occlusion of dentinal tubules (SEM/EDX)", "setting": "etched human dentine discs, 5-10 minutes application, rinsed, 1.5% to 6%", "result": "deposition of gadolinium on the surface of the dentine and with in the tubule; also recorded: promising results of dentinal occlusion; also recorded: deposits of gadolinium on dentinal surface and within tubule"}
    ]}
  ]
}
